Results of unrelated studies side by side (data: NIAID ChemDB).

Shared fields: whole-cell or culture tests; agent: Candida dubliniensis

ECn: concentration that inhibits the pathogen or its effect by n%.

compound,method,endpoint,strain or isolate,result
Clc1ccc(C(c2ccccc2)n2ccnc2)cc1,agar,MIC90,-,0.5 µg/mL
CCC(C)n1ncn(-c2ccc(N3CCN(c4ccc(OC[C@H]5CO[C@](Cn6cncn6)(c6ccc(Cl)cc6Cl)O5)cc4)CC3)cc2)c1=O,broth dilution,MIC50,-,0.03 µg/mL
CC(C)CC(O)C(=O)O,broth dilution,EC50,T-98 QC2000,18000 µg/mL
CC[C@@H]([C@H](C)O)n1ncn(-c2ccc(N3CCN(c4ccc(OC[C@@H]5CO[C@@](Cn6cncn6)(c6ccc(F)cc6F)C5)cc4)CC3)cc2)c1=O,-,MIC50,-,0.008–0.5 µg/mL
CC(C)C[C@H](N)C(=O)O,broth dilution,MFC100,EO 323,>72000 µg/mL
CCOC(=O)C1C(=O)C=C(c2ccc(OC)cc2)CC1c1ccc(C2CC(c3ccc(OC)cc3)=CC(=O)C2C(=O)OCC)cc1,-,MIC,Clinical isolate,200 µg/mL
CCC(C)CC(C)CCCCCCCCC(=O)N[C@H]1C[C@@H](O)[C@H](NCCN)NC(=O)[C@@H]2[C@@H](O)CCN2C(=O)[C@H]([C@H](O)CCN)NC(=O)[C@H]([C@H](O)[C@@H](O)c2ccc(O)cc2)NC(=O)[C@@H]2C[C@@H](O)CN2C(=O)[C@H]([C@@H](C)O)NC1=O,broth dilution,MIC,C345,0.125 µg/mL
COc1ccc(C(c2ccc(OC)cc2)n2ccnc2)cc1,broth dilution,MFC,-,>256 µg/mL
CCOC(=O)C1C(=O)C=C(c2ccccc2)CC1c1ccc(C2CC(c3ccccc3)=CC(=O)C2C(=O)OCC)cc1,-,MIC,Clinical isolate,6.25 µg/mL
c1ccc(C(c2ccccc2)n2ccnc2)cc1,agar,MIC90,-,0.5 µg/mL
O=C(O)c1ccc(C[C@H](C(=O)O)[C@@H](O)C(=O)O)cc1,-,MIC,CBS 7987,2 µg/mL
CCC(C)CC(C)CCCCCCCCC(=O)N[C@H]1C[C@@H](O)[C@H](NCCN)NC(=O)[C@@H]2[C@@H](O)CCN2C(=O)[C@H]([C@H](O)CCN)NC(=O)[C@H]([C@H](O)[C@@H](O)c2ccc(O)cc2)NC(=O)[C@@H]2C[C@@H](O)CN2C(=O)[C@H]([C@@H](C)O)NC1=O,-,MIC50,-,0.015–0.25 µg/mL
O=c1c(N2CCOCC2)c(N2CCN(S(=O)(=O)Cc3ccccc3)CC2)cnn1-c1ccccc1,broth dilution,MIC,C345,50 µg/mL
CCOC(=O)C1C(=O)C=C(c2ccc(C)cc2)CC1c1ccc(C2CC(c3ccc(C)cc3)=CC(=O)C2C(=O)OCC)cc1,-,MIC,Clinical isolate,25 µg/mL
CCCCCOc1ccc(-c2cc(-c3ccc(C(=O)N[C@H]4C[C@@H](O)[C@@H](O)NC(=O)[C@@H]5[C@@H](O)[C@@H](C)CN5C(=O)[C@H]([C@H](O)CC(N)=O)NC(=O)[C@H]([C@H](O)[C@@H](O)c5ccc(O)c(OS(=O)(=O)O)c5)NC(=O)[C@@H]5C[C@@H](O)CN5C(=O)[C@H]([C@@H](C)O)NC4=O)cc3)no2)cc1,broth dilution,MIC50,-,0.016 µg/mL

Again, the opening 2 rows:

| compound | method | endpoint | strain or isolate | result |
|---|---|---|---|---|
| Clc1ccc(C(c2ccccc2)n2ccnc2)cc1 | agar | MIC90 | - | 0.5 µg/mL |
| CCC(C)n1ncn(-c2ccc(N3CCN(c4ccc(OC[C@H]5CO[C@](Cn6cncn6)(c6ccc(Cl)cc6Cl)O5)cc4)CC3)cc2)c1=O | broth dilution | MIC50 | - | 0.03 µg/mL |

An empty or dashed field is not shown. MIC50, MIC90 and the like: level of inhibition, or share of isolates inhibited. a–b is a range or a potency band. Conditions beyond the fields shown may differ between rows.